Results of unrelated studies side by side (data: NIAID ChemDB).

Shared fields: whole-cell or culture tests; organism: HIV-1; read by: MTT; read-out: EC50

An empty or dashed field is not shown. Conditions beyond the fields shown may differ between rows. ECn is the concentration giving n% inhibition of infection, replication or growth.

structure	mutations	cell line	strain	result
CCCN(CCC)CCCCN(C)C(=O)c1ccc(CN(Cc2ncc[nH]2)Cc2ncn[nH]2)cc1		MT-4	IIIB	0.002 µM
COc1ccccc1C(C#N)c1nc(SC(C)C)[nH]c(=O)c1C	L100I	MT-4		0.04 µM
COc1ccc(CSc2nc(C(=O)c3ccc(Cl)cc3)c(C)c(=O)[nH]2)cc1		MT-4	IIIB	7.21 µM
Nc1ccn([C@H]2CC[C@@H](CO)O2)c(=O)n1		MT-4	IIIB	0.206 µM
C[C@H](CCC=C(c1cc(Cl)c(O)c(C(=O)O)c1)c1cc(Cl)c(O)c(C(=O)O)c1)[C@H]1CC[C@H]2[C@@H]3CC[C@@H]4CCCC[C@]4(C)[C@H]3CC[C@]12C		MT-4	IIIB	27.2 µM
O=Cc1coc2ccc(Cl)cc2c1=O		HTLV-I-bearing MT-4	IIIB	>40 µg/mL
O=C(COc1ccc2ccccc2c1)NCc1nnc(Nc2ccccc2)s1		MT-4	IIIB	>0.96 µg/mL
COC(=O)C(CS)NC(=O)CCCN1C(=O)c2ccccc2C1=O		MT-4	IIIB	>60.33 µM
CC(C)c1c(C(C)c2ccc(F)cc2)n(COCc2ccccc2)c(=O)[nH]c1=O	E138K	MT-4	IIIB	11.9 µM
CNc1nc(Nc2ccc(C#N)cc2)nc(Oc2ccc3ccccc3c2)c1C	K103N + Y181C	MT-4	IIIB	>178 µM
Cc1cc(C#N)cc(C)c1Oc1nc(NC2CCC(NCc3cccc(C(F)(F)F)c3)CC2)nc2ccsc12	NNRTI-resistant (RT K103N)	MT-4	IIIB	>707 µM
CCc1c(NC)nc(Nc2ccc(C#N)cc2)nc1Oc1ccc2ccccc2c1	K103N + Y181C	MT-4	IIIB	33.37 µM
Nc1ccn([C@H]2CC[C@@H](CO)O2)c(=O)n1		HTLV-I-bearing MT-4	IIIB	2.41 µg/mL
Cc1cc(C#N)cc(C)c1Oc1nc(NC2CCN(S(N)(=O)=O)CC2)nc2ccsc12		MT-4	IIIB	0.24 µM
O=Cc1coc2ccccc2c1=O		HTLV-I-bearing MT-4	IIIB	>40 µg/mL
Cc1cc(C#N)cc(C)c1Oc1nc(NC2CCN(S(=O)(=O)c3ccc([N+](=O)[O-])cc3)CC2)nc2ccsc12		MT-4	IIIB	0.85 µM
C[C@H](CCC=C(c1cc(Cl)c(O)c(C(=O)O)c1)c1cc(Cl)c(O)c(C(=O)O)c1)[C@H]1CCC2C3C(C[C@H](O)[C@@]21C)[C@@]1(C)CC[C@@H](O)C[C@H]1C[C@H]3O		MT-4	IIIB	62.3 µM
CC(C)CN(C[C@@H](O)[C@H](Cc1ccccc1)NC(=O)O[C@H]1CO[C@@H]2OCC[C@@H]21)S(=O)(=O)c1ccc2c(C=NCC3N=CC=N3)c(O)[nH]c2c1				>0.4 µM
O=C(COc1ccc2ccccc2c1)NCc1n[nH]c(=S)n1-c1ccccc1		MT-4	IIIB	>20.2 µg/mL
CCOC(=O)CNc1nc(Nc2ccccc2Cl)nc(Oc2cc(=O)oc3ccccc23)n1		MT-4	IIIB	>67.7 µg/mL
COC(=O)C(CC(C)C)NC(=O)CCCN1C(=O)c2ccccc2C1=O		MT-4	IIIB	>10.89 µM
Cc1cc(/C=C/C#N)cc(C)c1Oc1nc(NC2CCN(Cc3cccc(C(N)=O)c3)CC2)nc2ccsc12		MT-4	RES056	0.0438 µM
COC(=O)C(CO)NC(=O)CCCN1C(=O)c2ccccc2C1=O		MT-4	IIIB	>96.11 µM
C=C(c1cc(OC)cc(OC)c1)c1c(C)c(=O)[nH]c(=O)n1COCc1ccccc1	F227L + V106A	MT-4	IIIB	28.01 µM
CC(C)CN(C[C@@H](O)[C@H](Cc1ccccc1)NC(=O)O[C@H]1CO[C@H]2OCC[C@H]21)S(=O)(=O)c1ccc2[nH]c(O)c(C=NCc3nc4ccccc4[nH]3)c2c1	L10 V32 V33 M46 M47 L63 A71 V82 I84 mutant	MT-4		>0.4 µM
O=C1Nc2ccc(Cl)cc2[C@@](C#CC2CC2)(C(F)(F)F)O1	K103N	MT-4		0.0863 µM
Cc1cnc(Nc2ccc(C#N)cc2)nc1C(C)(O)c1ccc(F)cc1	K103N + Y181C	MT-4	IIIB	>38.2 µM
Cc1cc(C#N)cc(C)c1Oc1nc(NC2CCN(S(=O)(=O)c3ccc(-c4ccccc4)cc3)CC2)nc2ccsc12		MT-4	IIIB	1.1 µM
CC(C)[C@H](C)CC[C@](C)(O)[C@H]1C(=O)C[C@H]2[C@@H]3C(=O)C=C4C[C@@H](O)CC[C@]4(C)[C@H]3CC[C@@]21C		MT-4	NL4-3	0.0876 µM
CCC(O)(c1ccc(OC)cc1)c1c(C)c(=O)[nH]c(=O)n1COCc1ccccc1		MT-4	IIIB	>63.81 µM
Cc1c(Oc2ccnc(Nc3ccc(C#N)cc3)n2)ccc2ccccc12	WT	MT-4	IIIB	0.003 µM
Cc1cc(/C=C/C#N)cc(C)c1Oc1nc(NC2CCN(Cc3ccc([N+](=O)[O-])cc3)CC2)nc2ccsc12	NNRTI-resistant (RT L100I)	MT-4	IIIB	0.0263 µM
CCOC(=O)CNc1nc(NC(=O)Nc2ccc(Cl)cc2)nc(Oc2cc(=O)oc3ccccc23)n1		MT-4	IIIB	>125 µg/mL
COc1cccc(C(C)c2c(C)c(=O)[nH]c(=O)n2COCc2ccccc2)c1		MT-4	IIIB	>198 µM
N#Cc1ccc(Oc2cc(Cl)ccc2Cl)c(OCc2ccncc2)c1		MT-2	IIIB	1.8 µM
COc1ccc(CSc2nc(C(=O)c3ccc(Br)cc3)c(C)c(=O)[nH]2)cc1	K103N/Y181C	MT-4	IIIB	>201 µM
CNc1nc(Nc2ccc(C#N)cc2)nc(Oc2ccc3cc(C#N)ccc3c2)c1C(C)C	WT	MT-4	IIIB	0.008 µM
Cc1cccc(C(C)c2c(C(C)C)c(=O)[nH]c(=O)n2COCc2ccccc2)c1	K103N	MT-4	IIIB	4.33 µM
Cc1ccc(NC(=S)NNC(=O)CNC(=O)COc2ccc3ccccc3c2)cc1		MT-4	IIIB	>91.4 µg/mL
N#Cc1cc(Cl)cc(Oc2ccc(Br)c(-n3c(=O)[nH]c4cnccc43)c2F)c1		MT-4		0.0004 µM
CCOC(=O)CNc1nc(NC(=O)Nc2ccccc2Cl)nc(Oc2cc(=O)oc3ccccc23)n1		MT-4	IIIB	>78.8 µg/mL
O=C(COc1ccc2ccccc2c1)NCc1n[nH]c(=S)n1-c1ccc(Br)cc1		MT-4	IIIB	≥10.2 µg/mL
Cc1cc(C#N)cc(C)c1Oc1nc(NC2CCN(S(=O)(=O)c3ccc(C#N)cc3)CC2)nc2ccsc12		MT-4	IIIB	0.44 µM
Cc1c(Cl)nc(Nc2ccc(C#N)cc2)nc1Oc1ccc2ccccc2c1	K103N + Y181C	MT-4	IIIB	19.91 µM
C=C(c1ccccc1)c1c(C)c(=O)[nH]c(=O)n1COCc1ccccc1	L100I	MT-4	IIIB	31.3 µM
NC(N)=NCCCC(NC(=S)NC(=O)CCCN1C(=O)c2ccccc2C1=O)C(=O)O		MT-4	IIIB	>12.6 µM
Nc1ccn(C23C=C[C@@H](CO)[C@@H]2C3)c(=O)n1		MT-4	IIIB	>61.8 µg/mL
Cc1ccc2occ(C=O)c(=O)c2c1		HTLV-I-bearing MT-4	IIIB	>40 µg/mL
Cc1cc(/C=C/C#N)cc(C)c1Oc1nc(NC2CCN(Cc3cccnc3)CC2)nc2ccsc12	NNRTI-resistant (RT L100I)	MT-4	IIIB	0.00446 µM
COc1ccccc1NC(=S)Nc1nc(NCCc2ccc(OC)c(OC)c2)nc(Oc2cc(=O)oc3ccccc23)n1		MT-4	IIIB	>19.63 µg/mL
Cc1cc(C#N)cc(C)c1Oc1nc(Nc2ccc(NS(=O)(=O)c3ccc(-c4ccccc4)cc3)cc2)nc2ccsc12		MT-4	IIIB	3.6 µM
Cc1cc(/C=C/C#N)cc(C)c1Oc1nc(NC2CCN(Cc3ccccc3Cl)CC2)nc2ccsc12	NNRTI-resistant (RT Y181C)	MT-4	IIIB	0.133 µM
COc1ccc(NC(=S)NNC(=O)CNC(=O)COc2ccc3ccccc3c2)cc1		MT-4	IIIB	>13.2 µg/mL
COC(=O)C(Cc1ccccc1)NC(=O)CCCN1C(=O)c2ccccc2C1=O		MT-4	IIIB	>37.82 µM
Cc1cc(C#N)cc(C)c1Oc1nc(NC2CCN(S(=O)(=O)c3ccc4ccccc4c3)CC2)nc2ccsc12		MT-4	IIIB	0.74 µM
CCc1c(Cl)nc(Nc2ccc(C#N)cc2)nc1Oc1ccc2cc(C#N)ccc2c1Br	K103N + Y181C	MT-4	IIIB	49.33 µM
Cc1c(C(C)c2c(F)cccc2F)nc(N(C)C)[nH]c1=O		MT-4		0.01 µM
CC(O)C(NC(=S)NC(=O)CCCN1C(=O)c2ccccc2C1=O)C(=O)O		MT-4	IIIB	>28.54 µM
COC(=O)c1ccc(CN2CCC(Nc3nc(Oc4c(C)cc(C#N)cc4C)c4ccsc4n3)CC2)cc1	NNRTI-resistant (RT Y181C)	MT-4	IIIB	0.0907 µM
COc1ccc(CSc2nc(C(=O)c3cccc(F)c3)c(C(C)C)c(=O)[nH]2)cc1		MT-4	IIIB	6.52 µM